Measured values from several laboratories, pooled; numbers as filed in NIAID ChemDB.

Shared fields: enzyme or target tests

An empty or dashed field is not shown. Conditions beyond the fields shown may differ between rows. Inhibition is in % at the dose shown (toxicity tests: loss of growth or viability). ICn is the concentration giving n% inhibition.

structure,mutations,protein,method,measure,dose,result
NC(N)=NCCC[C@@H]1NC(=O)[C@H](CCCN=C(N)N)NC(=O)[C@@H](Cc2ccc(N)cc2)NC(=O)CNC(=O)[C@H](Cc2ccc3ccccc3c2)NC1=O,-,CXCR4,radiometric,IC50,-,0.1 µM
OC[C@H]1O[C@@H](n2c(I)nc3cc(Br)c(Br)cc32)[C@H](O)[C@@H]1O,-,Protein kinase C,-,IC50,-,>30 µM
O=C(O[C@@H]1Cc2c(O)cc(O)cc2O[C@@H]1c1cc(O)c(O)c(O)c1)c1cc(O)c(O)c(O)c1,-,CD4,ELISA,inhibition,50 µM,67.1%
NCCC[C@@H]1NC(=O)[C@H](CCCN=C(N)N)NC(=O)[C@@H](Cc2ccc(O)cc2)NC(=O)CNC(=O)[C@H](Cc2ccc3ccccc3c2)NC1=O,-,CXCR4,radiometric,IC50,-,0.69 µM
NC(N)=NCCCC(N)C(=O)NC[C@H]1O[C@H](O[C@H]2[C@H](O)[C@@H](O)[C@H](N)C[C@@H]2N)[C@H](N)[C@@H](O)[C@@H]1O,-,CXCR4,flow cytometry,inhibition,10 µM,5%
Cn1c2ccccc2c2c3c(c4c5ccccc5n(CC(F)F)c4c21)CNC3=O,-,Tyrosine kinase,-,IC50,-,>10 µM
NC(N)=NCCC[C@H](N)C(=O)NC[C@@H]1OC(O[C@H]2[C@@H](O)[C@H](O[C@@H]3[C@@H](O)[C@H](N)C[C@H](N)[C@H]3O[C@H]3O[C@H](CNC(=O)[C@@H](N)CCCN=C(N)N)[C@@H](O)[C@H](O)[C@H]3N)O[C@@H]2CO)[C@H](N)[C@@H](O)[C@@H]1O,-,CXCR4,flow cytometry,IC50,-,10 µM
O=C1NCc2c1c1c3ccccc3[nH]c1c1[nH]c3ccccc3c21,-,cGMP-dependent kinase,-,IC50,-,7 µM
CN(CC(C)(CCN1CCC(N(CCO)C(=O)OCc2ccc([N+](=O)[O-])cc2)CC1)c1ccsc1)S(=O)(=O)c1ccccc1,CCR5-W86A,CCR5,radiometric,IC50,-,0.91 µM
NC(N)=NCCC[C@@H]1NC(=O)[C@@H](Cc2ccc(O)cc2)NC(=O)CNC(=O)[C@@H]2Cc3c([nH]c4ccccc34)CN2C(=O)[C@H](CCCN=C(N)N)NC1=O,-,CXCR4,radiometric,IC50,-,>1 µM
Brc1c(Br)c(Br)c2[nH]c(I)nc2c1Br,-,Protein kinase A,-,IC50,-,>30 µM
NC(N)=NCCC[C@H](N)C(=O)NC[C@@H]1OC(O[C@H]2[C@@H](O)[C@H](O[C@@H]3[C@@H](O)[C@H](NC(=O)[C@@H](N)CCCN=C(N)N)C[C@H](NC(=O)[C@@H](N)CCCN=C(N)N)[C@H]3O[C@H]3O[C@H](CNC(=O)[C@@H](N)CCCN=C(N)N)[C@@H](O)[C@H](O)[C@H]3NC(=O)[C@@H](N)CCCN=C(N)N)O[C@@H]2CO)[C@H](NC(=O)[C@@H](N)CCCN=C(N)N)[C@@H](O)[C@@H]1O,-,CXCR4,flow cytometry,IC50,-,<10 µM
NC(N)=NCCC[C@@H]1NC(=O)[C@H](CCCN=C(N)N)NC(=O)[C@@H](Cc2cnc[nH]2)NC(=O)CNC(=O)[C@H](Cc2ccc3ccccc3c2)NC1=O,-,CXCR4,radiometric,IC50,-,0.15 µM
Cc1nc2cc(Cl)c(Cl)cc2n1[C@@H]1O[C@H](CO)[C@@H](O)[C@H]1O,-,Protein kinase C,-,IC50,-,>30 µM
NC[C@@H]1O[C@H](O[C@H]2[C@@H](O)[C@H](O[C@@H]3[C@@H](O)[C@H](N)C[C@H](N)[C@H]3O[C@H]3O[C@H](CN)[C@@H](O)[C@H](O)[C@H]3N)O[C@@H]2CO)[C@H](N)[C@@H](O)[C@@H]1O,-,CXCR4,flow cytometry,inhibition,20 µM,0%
Cc1cc(SC2=C(O)C[C@@](CCc3ccc(O)cc3)(C(C)C)OC2=O)c(C(C)(C)C)cc1CO,-,Cytochrome P450 2C9,-,inhibition,10 µM,14%
CCN(C(=O)OCc1ccccc1)C1CCN(CC[C@](C)(CN(C)S(=O)(=O)c2ccccc2)c2ccccc2)CC1,CCR5-Y251A,CCR5,radiometric,IC50,-,0.11 µM
N#CCCn1c2ccc(O)cc2c2c3c(c4c5cc(O)ccc5[nH]c4c21)C(=O)NC3,-,Myosin light-chain kinase,-,IC50,-,0.43 µM
CC(C)C(=O)N1C[C@H](CN2CCC(c3ccccc3)CC2)[C@@H](c2ccccc2)C1,CCR5-Y37A,CCR5,radiometric,IC50,-,0.18 µM
CSc1sc(C(N)=O)c2c1-c1nocc1CC2,-,Protein kinase A,-,IC50,-,>30 µM